In ChEMBL document CHEMBL1201862, “PubChem BioAssay data set” (2004):
Only a part is listed here, and it is no random draw. These assays gave more results; the selection is not random.

Molecular target: T1, Protein RecA (Mycobacterium tuberculosis) (UniProt P9WHJ3)
T1 sequence (whole entry): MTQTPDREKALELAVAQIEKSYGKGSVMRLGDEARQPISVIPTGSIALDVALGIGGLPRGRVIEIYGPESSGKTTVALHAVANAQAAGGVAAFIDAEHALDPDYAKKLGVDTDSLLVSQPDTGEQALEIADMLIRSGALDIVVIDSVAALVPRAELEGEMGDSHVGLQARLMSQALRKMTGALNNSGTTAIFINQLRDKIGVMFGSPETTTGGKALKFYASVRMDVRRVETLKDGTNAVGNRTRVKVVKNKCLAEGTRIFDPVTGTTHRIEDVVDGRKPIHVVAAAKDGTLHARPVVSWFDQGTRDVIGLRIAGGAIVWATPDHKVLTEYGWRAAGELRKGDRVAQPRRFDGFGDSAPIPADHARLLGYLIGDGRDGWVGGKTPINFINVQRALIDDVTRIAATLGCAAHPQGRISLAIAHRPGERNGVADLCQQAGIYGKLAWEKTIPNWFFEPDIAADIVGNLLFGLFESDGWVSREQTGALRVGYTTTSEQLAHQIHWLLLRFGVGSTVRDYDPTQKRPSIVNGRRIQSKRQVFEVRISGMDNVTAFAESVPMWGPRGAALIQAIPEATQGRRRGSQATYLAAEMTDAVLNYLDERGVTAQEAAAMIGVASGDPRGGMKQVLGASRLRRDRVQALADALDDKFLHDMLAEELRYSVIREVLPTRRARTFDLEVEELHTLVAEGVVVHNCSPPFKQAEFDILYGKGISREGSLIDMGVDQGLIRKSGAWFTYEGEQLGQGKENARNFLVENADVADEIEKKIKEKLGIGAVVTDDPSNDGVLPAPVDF
Test: M. tuberculosis H37Rv growth inhibition, dose response, strain H37Rv (AID 489010); call rule not given here;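 further: whole Mycobacterium tuberculosis cells grown in culture and not purified RecA protein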
Format: functional

CCc1nc2c([nH]1)c1no[n+]([O-])c1c1no[n+]([O-])c21
IC90: active: 14.9 µM
